Measured values from patent US7846971B2, “N-halogenated amino acids, N,N-dihalogenated amino acids and derivatives; compositions and methods of using them” (Novabay Pharmaceuticals, Inc., priority 2005, dated 2010).

System: Primary Human Skin Fibroblasts
Assay: XTT cytotoxicity assay on primary human skin fibroblasts
Assay type: cell-based
Protocol: Cytotoxicity was assessed by a colorimetric assay system, initially described by Scudiero et al., using 3′-(phenylamino-carbonyl)-3,4-tetrazolium-bis (4-methoxy-6-nitro) benzene sulfonic acid hydrate (XTT), ProCheck™ cell viability assay (Evaluation of a soluble tetrazolium/formazan assay for cell growth and drug sensitivity in culture using human and other tumor cell lines described by Scudiero D A, Shoemaker R A H, Paul K D, Monks A, Tierney S, Nofziger T H, Currens M J, Seniff D, Boyd M R. Cancer Res. 1988 Septmeber 1;48(17):4827-33). Similar approaches for determining the cell viability are used by other investigators. Three cell types were used: mouse lung epithelial cells (L929), primary human skin fibroblast and primary human keratinocyte cells cultured in Dulbecco Modified Eagle's Medium and Keratinocyte defined medium with corresponding growth factors plus antibiotics. Cells were trypsinized and counted under the microscope and seeded at 1000-to-2000 cells per well of a flat-bottom 96-well plate. Cells were allowed to grow over-night at 37° C. Next day, tissue culture media was removed and cells were rinsed with fresh media 1× and then left in 50 μL of tissue culture media. […] Absorbance was read at 450 nm with reference wavelength at 750 nm using Molecular Device ThermoMax Plate reader, blanking the plate on the medium-only assay blank wells. […]

## OCl [HOCl, hypochlorous acid, reference compound]
Table 2
  therapeutic index (TI), IC50 over MBC: about 300
pH 3.5, IC50/MBC E. coli
  T.I. on HF (Therapeutic Index, primary human skin fibroblast cells): 297
